Results published in PMC10610090, “The Synthetic Peptide GA-Hecate and Its Analogs Inhibit Multiple Steps of the Chikungunya Virus Infection Cycle In Vitro” (Pharmaceuticals, 2023).

Columns and labels:
CHIKV-NLuc [1] = type: cell-based, Chikungunya virus; conditions: Huh-7 cells, ratio CC50/EC50
CHIKV-NLuc [2] = type: cell-based, Chikungunya virus; conditions: BHK-21 cells, ratio CC50/EC50

SMILES	SI (selectivity index) (CHIKV-NLuc [1])	SI (selectivity index) (CHIKV-NLuc [2])
CC(C)C[C@H](NC(=O)[C@H](C)NC(=O)[C@H](CCCCN)NC(=O)[C@H](CCCCN)NC(=O)[C@H](CC(C)C)NC(=O)[C@H](C)NC(=O)[C@H](CCCCN)NC(=O)[C@H](CCCCN)NC(=O)[C@H](CC(C)C)NC(=O)[C@H](CCCCN)NC(=O)[C@H](CCCCN)NC(=O)[C@H](CC(C)C)NC(=O)[C@H](C)NC(=O)[C@H](CCCCN)NC(=O)[C@H](CCCCN)NC(=O)[C@H](CC(C)C)NC(=O)[C@H](C)NC(=O)[C@H](CCCCN)NC(=O)[C@H](CC(C)C)NC(=O)[C@H](C)NC(=O)[C@H](CC(C)C)NC(=O)[C@H](C)NC(=O)[C@H](Cc1ccccc1)NC(=O)c1cc(O)c(O)c(O)c1)C(N)=O [GA-Hecate] (Galloyl-FALALKALKKALKKLKKALKKAL-NH2)	49.1	4.1
CC(C)C[C@H](NC(=O)[C@H](CCCCN)NC(=O)[C@H](CCCCN)NC(=O)[C@H](CC(C)C)NC(=O)[C@H](C)NC(=O)[C@H](CCCCN)NC(=O)[C@H](CCCCN)NC(=O)[C@H](CC(C)C)NC(=O)[C@H](C)NC(=O)[C@H](CCCCN)NC(=O)[C@H](CC(C)C)NC(=O)[C@H](C)NC(=O)[C@H](CC(C)C)NC(=O)[C@H](C)NC(=O)[C@H](Cc1ccccc1)NC(=O)c1cc(O)c(O)c(O)c1)C(=O)O [PSSct1905, GA-FALALKALKKALKKL-COOH] (Galloyl-FALALKALKKALKKL-OH)	28.9	6.7
CC(C)C[C@H](NC(=O)[C@H](C)NC(=O)[C@H](CCCCN)NC(=O)[C@H](CCCCN)NC(=O)[C@H](CC(C)C)NC(=O)[C@H](C)NC(=O)[C@H](CCCCN)NC(=O)[C@H](CCCCN)NC(=O)[C@H](CC(C)C)NC(=O)[C@H](CCCCN)NC(=O)[C@H](CCCCN)NC(=O)[C@H](CC(C)C)NC(=O)[C@H](C)NC(=O)[C@H](CCCCN)NC(=O)[C@H](CCCCN)NC(=O)[C@H](CC(C)C)NC(=O)[C@H](C)NC(=O)[C@H](CCCCN)NC(=O)[C@H](CC(C)C)NC(=O)[C@H](C)NC(=O)[C@H](CC(C)C)NC(=O)[C@H](C)NC(=O)[C@H](Cc1ccccc1)NC(=O)c1ccc(N(C)C)cc1)C(N)=O [PSSct1910] (X1-FALALKALKKALKKLKKALKKAL-NH2)	38.5	4.9

Read-outs that look alike come from different tables or passages of the source. Peptide text beside a SMILES is read from it. * marks the point of attachment. Galloyl = O=C(c1cc(O)c(O)c(O)c1)*; X1 = CN(C)c1ccc(C(=O)*)cc1
